Anti-infective test results gathered from many reports (values: NIAID ChemDB through PubChem).

Shared fields: toxicity to cultured cells; cells: CEM; endpoint: CC50

Conditions beyond the fields shown may differ between rows. Blank or dashed fields: not listed here. CCn: concentration that lowers growth or viability of the cells by n%.

| smiles | method | result |
|---|---|---|
| C[C@H](Cn1cnc2c(N)ncnc21)OCP(=O)(O)O |  | >250 µM |
| CC(C)C[C@H](C(=O)N[C@H]1C(=O)N[C@@H](CC(N)=O)C(=O)N[C@H]2C(=O)N[C@H]3C(=O)N[C@H](C(=O)N[C@H](C(=O)O)c4cc(O)c(CN5CCN(Cc6ccc(-c7ccccc7)cc6)CC5)c(O)c4-c4cc3ccc4O)[C@H](O)c3ccc(cc3)Oc3cc2cc(c3O)Oc2ccc(cc2Cl)[C@H]1O)N(C)C(=O)OC(C)(C)C | cell count | >100 µM |
| CCCOC12CS(=O)(=O)OC13[C@@H](CN2)O[C@@H](n1cc(C)c(=O)[nH]c1=O)[C@@H]3O[Si](C)(C)C(C)(C)C |  | 28.5 µM |
| OC[C@@H]1CC[C@H](COc2ncnc3nc[nH]c23)O1 |  | >250 µM |
| C=CCN(C(=O)[C@H](Cc1ccccc1)NC(=O)OC(C)(C)C)C(C)C(=O)N[C@H](C(=O)N[C@H](C(=O)OC)C(C)C)[C@@H](C)CC |  | >10 µg/mL |
| CCCCCCCCCCCCCCCCCCNCc1c(O)cc2c(c1O)-c1cc(ccc1O)[C@H]1NC(=O)[C@@H]3NC(=O)[C@H]4NC(=O)[C@@H](Cc5ccc(c(Cl)c5)Oc5cc3cc(c5O)Oc3ccc(cc3Cl)[C@@H](O)[C@H](NC1=O)C(=O)N[C@@H]2C(=O)O)NC(=O)[C@H](N)c1ccc(O)c(c1)Oc1cc(O)cc4c1 | cell count | 22 µM |
| C=CCN(C(=O)[C@H](Cc1ccccc1)NC(=O)[C@H](C)NC(=O)OC(C)(C)C)C(C)C(=O)N[C@H](C(=O)N[C@H](C(=O)OC)C(C)C)[C@@H](C)CC |  | >200 µg/mL |
| Cc1cn([C@@H]2O[C@@H]3CN[C@H]4CS(=O)(=O)O[C@]43[C@H]2O[Si](C)(C)C(C)(C)C)c(=O)[nH]c1=O |  | >125 µM |
| N[C@H]1C(=O)N[C@@H]2Cc3ccc(c(Cl)c3)Oc3cc4cc(c3O)Oc3ccc(cc3Cl)[C@@H](O)[C@@H]3NC(=O)[C@H](NC(=O)[C@@H]4NC(=O)[C@@H](NC2=O)c2cc(O)cc(c2)Oc2cc1ccc2O)c1ccc(O)c(c1)-c1c(cc(O)c(CNC2C4CC5CC(C4)CC2C5)c1O)[C@@H](C(=O)O)NC3=O | cell count | >250 µM |
| CN1c2c(-c3ccccc3)nn(CC(=O)N/N=C/c3cccc([N+](=O)[O-])c3)c2-c2ccccc2S1(=O)=O |  | 99.6 µM |
| N[C@H]1C(=O)N[C@@H]2Cc3ccc(c(Cl)c3)Oc3cc4cc(c3O)Oc3ccc(cc3Cl)[C@@H](O)[C@@H]3NC(=O)[C@H](NC(=O)[C@@H]4NC(=O)[C@@H](NC2=O)c2cc(O)cc(c2)Oc2cc1ccc2O)c1ccc(O)c(c1)-c1c(O)cc(O)cc1[C@@H](C(=O)C1NCCC2CCCCC21)NC3=O | cell count | >250 µM |
| CC[C@H](C)[C@H](NC(=O)CN(CC(Br)CBr)C(=O)[C@H](Cc1ccccc1)NC(=O)OC(C)(C)C)C(=O)N[C@H](C(=O)OC)C(C)C |  | 42.51 µg/mL |
| C#CCO[C@]12CS(=O)(=O)O[C@@]13[C@@H](CN2)O[C@@H](n1cc(C)c(=O)[nH]c1=O)[C@@H]3O[Si](C)(C)C(C)(C)C |  | 66.2 µM |
| CN1c2c(-c3ccccc3)nn(CC(=O)N/N=C/c3ccc(Cl)cc3Cl)c2-c2ccccc2S1(=O)=O |  | >100 µM |
| CC(C)(C)OC(=O)N[C@H]1C(=O)N[C@@H]2Cc3ccc(c(Cl)c3)Oc3cc4cc(c3O)Oc3ccc(cc3Cl)[C@@H](O)[C@@H]3NC(=O)[C@H](NC(=O)[C@@H]4NC(=O)[C@@H](NC2=O)c2cc(O)cc(c2)Oc2cc1ccc2O)c1ccc(O)c(c1)-c1c(O)cc(O)cc1[C@@H](C(=O)O)NC3=O | cell count | >250 µM |
| CC[C@H](C)C(NC(=O)c1ccccc1S)C(=O)O |  | >100 µM |
| Nc1nccc(OC[C@@H]2O[C@H](CO)[C@@H](O)[C@H]2O)n1 |  | >250 µM |
| CN1c2c(-c3ccccc3)nn(CC(=O)N/N=C/c3ccccc3[N+](=O)[O-])c2-c2ccccc2S1(=O)=O |  | 88.9 µM |
| COC(=O)[C@H]1NC(=O)[C@H]2NC(=O)[C@H](NC(=O)[C@@H]3NC(=O)[C@H]4NC(=O)[C@H](NC(=O)[C@H](N)c5ccc(O)c(c5)Oc5cc4cc(O)c5C)[C@H](O)c4ccc(cc4)Oc4cc3cc(c4O)Oc3ccc(cc3)[C@H]2O[C@@H]2C[C@@H](N)[C@@H](O)[C@H](C)O2)c2ccc(O)c(c2)-c2c(O)cc(O)cc21 | cell count | >100 µM |
| COc1ccc(/C=N/NC(=O)Cn2nc(-c3ccccc3)c3c2-c2ccccc2S(=O)(=O)N3C)cc1 |  | 20.7 µM |
| CCCCc1ccc(CNCc2c(O)cc3c(c2O)-c2cc(ccc2O)[C@H]2NC(=O)[C@@H]4NC(=O)[C@H]5NC(=O)[C@@H](Cc6ccc(c(Cl)c6)Oc6cc4cc(c6O)Oc4ccc(cc4Cl)[C@@H](O)[C@H](NC2=O)C(=O)N[C@@H]3C(=O)O)NC(=O)[C@H](NC(=O)OC(C)(C)C)c2ccc(O)c(c2)Oc2cc(O)cc5c2)cc1 | cell count | 60 µM |
| CCC(=O)c1ccc(NC(=O)c2ccccc2SSc2ccccc2C(=O)Nc2ccc(C(=O)CC)cc2)cc1 |  | 105 µM |
| Nc1nc(OC[C@H]2CC[C@@H](COCc3ccccc3)O2)c2[nH]cnc2n1 |  | 191 µM |
| Cc1cn([C@@H]2O[C@@H]3CN[C@@]4(OCC(C)(C)C)CS(=O)(=O)O[C@@]34[C@H]2O[Si](C)(C)C(C)(C)C)c(=O)[nH]c1=O |  | 21.5 µM |
| Nc1nc(Cl)cc(OC[C@@H]2O[C@H](COCc3ccccc3)[C@@H](OCc3ccccc3)[C@H]2OCc2ccccc2)n1 |  | 35 µM |
| COc1ccc(/C=N/NC(=O)Cn2nc(-c3ccccc3)c3c2-c2ccccc2S(=O)(=O)N3C)c(OC)c1OC |  | >100 µM |
| C=CCNCC(=O)N[C@H](C(=O)N[C@H](C(=O)OC)C(C)C)[C@@H](C)CC |  | >66.7 µg/mL |
| CN1c2c(-c3ccccc3)nn(CC(=O)N/N=C/c3ccc(Cl)c(Cl)c3)c2-c2ccccc2S1(=O)=O |  | 19.3 µM |
| C=CCN(CC(=O)N[C@H](C(=O)N[C@H](C(=O)OC)C(C)C)[C@@H](C)CC)C(=O)[C@H](Cc1ccccc1)NC(=O)OC(C)(C)C |  | >100 µg/mL |
| CCCCc1ccc(CN2CCN(Cc3c(O)cc4c(c3O)-c3cc(ccc3O)[C@H]3NC(=O)[C@@H]5NC(=O)[C@H]6NC(=O)[C@@H](Cc7ccc(cc7)Oc7cc5cc(c7O[C@@H]5O[C@H](C(=O)O)[C@@H](O)[C@H](O)[C@H]5N)Oc5ccc(cc5Cl)[C@@H](O)[C@H](NC3=O)C(=O)N[C@@H]4C(=O)O)NC(=O)[C@H](NC)c3ccc(O)c(c3)Oc3cc(O)c(Cl)c6c3)CC2)cc1 | cell count | 106 µM |
| Cc1cn([C@@H]2OC3CN[C@@]4(OCC(C)C)CS(=O)(=O)O[C@@]34[C@H]2O[Si](C)(C)C(C)(C)C)c(=O)[nH]c1=O |  | 21.1 µM |
| CCCCCCCCCCNCc1c(O)cc2c(c1O)-c1cc(ccc1O)[C@H]1NC(=O)[C@@H]3NC(=O)[C@H](CC(N)=O)NC(=O)[C@H](NC(=O)[C@@H](CC(C)C)NC)[C@H](O)c4ccc(c(Cl)c4)Oc4cc3cc(c4OC3O[C@H](CO)[C@@H](O)[C@H](O)[C@H]3O[C@H]3C[C@](C)(N)[C@@H](O)[C@H](C)O3)Oc3ccc(cc3)[C@@H](O[C@H]3C[C@](C)(N)[C@@H](O)[C@H](C)O3)[C@H](NC1=O)C(=O)N[C@@H]2C(=O)O | cell count | 24 µM |
| Nc1cc(OC[C@H]2CC[C@@H](CO)O2)nc(N)n1 |  | >250 µM |
| COC(=O)c1ccccc1SSc1ccccc1C(=O)OC |  | 9.3 µM |
| CN(C)c1ccc(/C=N/NC(=O)Cn2nc(-c3ccccc3)c3c2-c2ccccc2S(=O)(=O)N3C)cc1 |  | >100 µM |
| CCCNC(=O)c1ccccc1SSc1ccccc1C(=O)NCCC |  | 19 µM |
| Nc1ccnc(OC[C@H]2CC[C@@H](COCc3ccccc3)O2)n1 |  | >250 µM |

For reference, 4 entries again:

{"smiles": "C=CCN(C(=O)[C@H](Cc1ccccc1)NC(=O)[C@H](C)NC(=O)OC(C)(C)C)C(C)C(=O)N[C@H](C(=O)N[C@H](C(=O)OC)C(C)C)[C@@H](C)CC", "result": ">200 µg/mL"}
{"smiles": "COC(=O)[C@H]1NC(=O)[C@H]2NC(=O)[C@H](NC(=O)[C@@H]3NC(=O)[C@H]4NC(=O)[C@H](NC(=O)[C@H](N)c5ccc(O)c(c5)Oc5cc4cc(O)c5C)[C@H](O)c4ccc(cc4)Oc4cc3cc(c4O)Oc3ccc(cc3)[C@H]2O[C@@H]2C[C@@H](N)[C@@H](O)[C@H](C)O2)c2ccc(O)c(c2)-c2c(O)cc(O)cc21", "method": "cell count", "result": ">100 µM"}
{"smiles": "CCCOC12CS(=O)(=O)OC13[C@@H](CN2)O[C@@H](n1cc(C)c(=O)[nH]c1=O)[C@@H]3O[Si](C)(C)C(C)(C)C", "result": "28.5 µM"}
{"smiles": "C=CCN(C(=O)[C@H](Cc1ccccc1)NC(=O)OC(C)(C)C)C(C)C(=O)N[C@H](C(=O)N[C@H](C(=O)OC)C(C)C)[C@@H](C)CC", "result": ">10 µg/mL"}